Pooled drug test results. Numbers come from NIAID ChemDB, via PubChem.

Common to all: tests in culture; agent: HIV-1; cell line: 293T; read-out: EC50

ECn is the concentration giving n% inhibition of infection, replication or growth. Conditions beyond the fields shown may differ between rows. Blank or dashed fields: not listed here.

structure,strain,mutations,read by,conditions,result
CS(=O)(=O)CCc1cnc2c(c1)c(N)c(C(=O)NCc1ccc(F)cc1F)c(=O)n2O,,Y143H,luciferase,pseudotyped,0.0374 µM
CS[C@@]12C[C@H]3C(=O)CC[C@H](O)[C@H]3N1C(=O)[C@]1(SC)CC3=CC=C[C@H](O)[C@H]3N1C2=O,NL4-3,,luciferase / luminescence,,8.7 µM
Cc1ccc2c(c1)CC[C@H]1N2[C@H](C(=O)c2ccccc2)[C@@H](c2ccc(Cl)cc2)[C@]1(C#N)C(N)=O,,,luciferase,,13.5 µM
CC1(C)C[C@@H](O)C[C@]2(C)C1CC[C@@]13C[C@@](O)(CCC12)[C@](C)(O)C3,,,luciferase,,9.1 µM
CS[C@@]12CC3=CC=C[C@H](O)[C@H]3N1C(=O)[C@]13C[C@H]4C(=O)[C@H](C[C@H](O)[C@H]4N1C2=O)S3,NL4-3,,luciferase / luminescence,,10.7 µM
CC(=O)[C@H]1/C=C(C)/C=C\C=C(/C)C(=O)C[C@@H]2[C@]1(C)CC[C@@]2(O)C(C)C,,,luciferase,pseudotyped,>30 µM
CS[C@@]1(Cc2ccccc2)NC(=O)[C@](O)(Cc2ccccc2)NC1=O,NL4-3,,luciferase / luminescence,,5.8 µM
CC(=O)[C@H]1/C2=C(C)/C=C\C=C(/C)C(=O)C2[C@@H]2[C@]1(C)CC[C@@]2(O)C(C)C,,,luciferase,pseudotyped,>30 µM
COc1cccc(C(=O)[C@@H]2[C@@H](c3ccccc3F)[C@](C#N)(C(N)=O)[C@H]3CCc4cc(C)ccc4N23)c1,,,luciferase,,21.5 µM
CC(C)=CCC[C@@H](C)[C@@H]1CCC(C)=CC[C@H](O)/C(C)=C/[C@@H]1O,,,luciferase,pseudotyped,>30 µM
O=C(C1=C2C=CC=C3CCC(C=C1)C32)N1CC2CN(C(=O)c3ccccc3)CC2C1,JR-CSF,,luciferase / single cycle,pseudotyped,100 µM
COc1cccc(C(=O)[C@@H]2[C@@H](c3ccc(O)c(Cl)c3)[C@](C#N)(C(N)=O)[C@H]3CCc4cc(C)ccc4N23)c1,,,luciferase,,45 µM
CC(C)=CCC[C@@H](C)[C@@H]1[C@H](O)C/C(C)=C/C/C=C(/CO)[C@H]1CO,,,luciferase,pseudotyped,>30 µM
COc1cc([C@H](Cc2ccccc2)n2cc(C(=O)NC(=O)C[C@H](C)C(=O)O)c(=O)cc2Cc2ccccc2)oc(=O)c1,NL4-3,,ELISA,,3.2 µM
CC(=O)O[C@H]1[C@@H]2C(C)=CC=C[C@]2(C)C(=O)C[C@@H]2[C@]1(C)CC[C@@]2(O)C(C)C,,,luciferase,pseudotyped,>30 µM
CS[C@@]1(Cc2ccccc2)NC(=O)[C@@](Cc2ccccc2O)(SC)NC1=O,NL4-3,,luciferase / luminescence,,4.9 µM